Holding throughout (test): BLI, ShAb-Fc on AHC probe, RBD analyte, 1:1 fit
In one test the target is T1, SARS-CoV-2 RBD L452R (SARS-CoV-2).
T1 construct: range […]

Another test addresses T2, SARS-CoV-2 RBD K417N (SARS-CoV-2).
T2 construct: range […]

The next test has as its target T3, SARS-CoV-2 RBD N501Y (SARS-CoV-2).
T3 construct: range […]

For the next test, the target named is T4, SARS-CoV-2 RBD E484K (SARS-CoV-2).
T4 construct: range […]

Our source for the kon, Kd and koff values is patent US20230331823A1 (HENRY M JACKSON FOUNDATION FOR THE ADVANCEMENT OF MILITARY …, published 2023).

As a reminder, the kon is a measure of how fast the partners come together. Lower therefore signals slower complex formation. In general, Kd refers to the constant that tells how readily two partners part at equilibrium. A high value points to weaker binding. By koff is commonly meant the first-order rate constant of dissociation. Lower therefore signals a long-lived complex.

B1: ShAb01H02K (ShAb01Hole-02Knob) (bispecific antibody)
chain 1: ARVDQTPRSVTKETGESLTINCVLRDSNCALSSTHWYRKKSGSTNEERILQGRRYVETVNSGSKSFSLRINDLRVEDSGTYRCKVYWGNSWQDKFCPGLGSYEYGDGTAVTVNSREPKSCDKGLEVLFQGP[no letters for human IgG1 Fc with Y407T (EU numbers)]
chain 2: ARVDQTPQTITKETGESLTINCVLRDSNCALASTDWYRKKSGSTNEESISKGGRYVETVNSGSKSFSLRINDLTVEDSGTYRCNAWDSWETRQLKCDYDVYGGGTVVTVNSREPKSCDKGLEVLFQGP[no letters for human IgG1 Fc with T366Y (EU numbers)]
Turning to B1, the kon came to 156000 M⁻¹ s⁻¹ in the test with SARS-CoV-2 RBD L452R, 353000 M⁻¹ s⁻¹ with SARS-CoV-2 RBD K417N, 341000 M⁻¹ s⁻¹ in the test with SARS-CoV-2 RBD N501Y and 310000 M⁻¹ s⁻¹ in the test with SARS-CoV-2 RBD E484K. For the same molecule, the Kd with SARS-CoV-2 RBD K417N was determined as 1.29 nM; in the test with SARS-CoV-2 RBD N501Y, 1.51 nM; in the test with SARS-CoV-2 RBD E484K, 1.65 nM. Also, the values for the koff with SARS-CoV-2 RBD K417N, in the test with SARS-CoV-2 RBD N501Y and with SARS-CoV-2 RBD E484K were 0.000457 s⁻¹, 0.000513 s⁻¹ and 0.000511 s⁻¹, respectively.

B2: BiShAb21a (ShAb02 VNAR-25aa-ShAb01 VNAR-3c-Fc) (bispecific antibody)
chain: ARVDQTPQTITKETGESLTINCVLRDSNCALASTDWYRKKSGSTNEESISKGGRYVETVNSGSKSFSLRINDLTVEDSGTYRCNAWDSWETRQLKCDYDVYGGGTVVTVNGGGGSGGGGSGGGGSGGGGSGGGGSARVDQTPRSVTKETGESLTINCVLRDSNCALSSTHWYRKKSGSTNEERILQGRRYVETVNSGSKSFSLRINDLRVEDSGTYRCKVYWGNSWQDKFCPGLGSYEYGDGTAVTVNSREPKSCDKGLEVLFQ[no letters for human IgG1 Fc and a few adjoining residues]
With B2, the Kd was found to be 1.23 nM with SARS-CoV-2 RBD L452R, 1.67 nM with SARS-CoV-2 RBD K417N, 1.79 nM with SARS-CoV-2 RBD N501Y and 1.98 nM in the test with SARS-CoV-2 RBD E484K. Also, the off-rate constant (koff) stood at 0.000133 s⁻¹ with SARS-CoV-2 RBD L452R, 0.000352 s⁻¹ in the test with SARS-CoV-2 RBD K417N, 0.00037 s⁻¹ with SARS-CoV-2 RBD N501Y and 0.000415 s⁻¹ with SARS-CoV-2 RBD E484K. The kon with SARS-CoV-2 RBD L452R was found to be 109000 M⁻¹ s⁻¹; in the test with SARS-CoV-2 RBD K417N, 211000 M⁻¹ s⁻¹; with SARS-CoV-2 RBD N501Y it was 207000 M⁻¹ s⁻¹; with SARS-CoV-2 RBD E484K, 210000 M⁻¹ s⁻¹.
